Measured values: BindingDB's records for doi:10.1016/j.ejmech.2020.112549 (Sichuan University, 2020)

Experiments:
[1] = Inhibition of reverse transcriptase E138K mutant in HIV-1 3B infected in human MT4 cells assessed as reduction in virus-induced cytopathic effect incubated for 5 days by MTT assay
[2] = Inhibition of reverse transcriptase Y188L mutant in HIV-1 3B infected in human MT4 cells assessed as reduction in virus-induced cytopathic effect incubated for 5 days by MTT assay
[3] = Inhibition of reverse transcriptase L100I mutant in HIV-1 3B infected in human MT4 cells assessed as reduction in virus-induced cytopathic effect incubated for 5 days by MTT assay
[4] = Inhibition of reverse transcriptase K103N mutant in HIV-1 3B infected in human MT4 cells assessed as reduction in virus-induced cytopathic effect incubated for 5 days by MTT assay

For `Cc1cc(C#N)cc(C)c1Oc1nc(Nc2ccc(C#N)cc2)nc(N)c1Br`, the EC50 [1] was 18 nM, the EC50 [2] was 16 nM and the EC50 [3] was 9.2 nM. It also gave an EC50 [4] of 2.3 nM.
